Measured values as given in article PMC9020739, “Identification of a two-component regulatory system involved in antimicrobial peptide resistance in Streptococcus pneumoniae” (PLoS Pathogens, 2022).
The exact form of at least one protein or probe is not confirmed.

Target: RR01-D52E (response regulator of TCS01, phosphomimetic) (UniProt Q8DNX6)
Assay: EMSA
Details: 2.5 ug protein, 100 ng DNA (>140 molar excess); recombinant protein; residues 1-225; label: none (GelRed stain); probe letters rebuilt from the primers and the genome

**Q.** Does “ATATTTCACCCAATCTTACAAAAATGTAAGATTAAAGTCTCTTTTGTAAGGTTAGGTTATGGCAAGCGGTCTTTTTTTGATGTAAACTAGACTCATAAAGAACAAAGGAGTAACATCATGAAACAAATCTTACATAAGAAAACTAGAAAACCAAGTCACAAAGAAATTGAGCGCGTTCAGCTGGGATGCACTATGATGCAAGCTACATTTCATTTGATGGGATATTAAGAAAGGAGATTCTCATGACACTTTTAGATGTAAAACACGTTCAAAAAATTTATAAAACACGTTTTCAGGGCAACCAAGTAGAAGCCCTCAAGGATATTCACTTTACCGTCGAAAAGGGTGACTACGTTGCCATCATGGGTGAGTCTGGTTCTGGTAAATCAACTCTTCTCAATATTCTAGCTATGCTGGATAAACCAAGTCGTGGTCAGGTTTACTTGAATGGAACTGACACCGCAACCATTAAAAATTCACAGGCCTCTAGCTTCCGTCGTGAAAAGTTGGGCTTTGTCTTCCAAGACTTTAACTTGCTAGATACTCTATCTGTAAAGGACAATATCTTGCTTCCGCT (double strand) [bceAB promoter fragment]” bind?
**A.** Result: binds
